Pooled drug test results. Numbers come from NIAID ChemDB, via PubChem.

Common to all: host cell toxicity; endpoint: CC50

Neighbouring rows are from separate reports.

| smiles | method | cell line | value |
|---|---|---|---|
| Nc1nc(Cl)nc2c1ncn2[C@H]1CC[C@@H](CO)O1 |  | Sheep chondrocytes G81092 | 195 µM |
| CSc1nc(Cl)c([N+](=O)[O-])c(N2CC[N+]3(CC2)CC[N+]2(CCN(c4nc(SC)nc(Cl)c4[N+](=O)[O-])CC2)CC3)n1 |  | K562 | >263.7 µg/mL |
| Nc1ccn(C[C@@H](CO)OCP(=O)(O)O)c(=O)n1 |  | NHDF | 200 µM |
| CCOC(=O)CNC(=O)N1CC=CC1=O | MTT / absorbance | U-937 | 324 µM |
| OC(c1cc(-c2ccccc2)nc2c1ccc1ccccc12)C1CCCCN1 |  | VERO | 1.8 µg/mL |
| CC1(C)C2CCC1(C)C(NC(=O)[C@@H](O)Cc1ccccc1)C2 | MTT | HEK293T | 52.8 µM |
| Nc1nc2c(ncn2COCCO)c(=O)[nH]1 |  | E6SM | >400 µg/mL |
| O=C1CCC(c2ccccc2)C(=O)N1CCCCN1CCN(c2ccccn2)CC1 | MTT | VERO 76 | 98 µM |
| OC1c2ccccc2C=Cc2ccccc21 |  | HELA-H1 | 150 µM |
| Nc1nc2c(ncn2C[C@H]2COP(=O)(O)CO2)c(=O)[nH]1 |  | HSB-2 | 153 µM |
| C=CCNC(=O)N1CC=CC1=O | MTT / absorbance | U-937 | 848 µM |
| COc1ccccc1C(=O)NC1N=C(c2cccc(Cl)c2)c2ccccc2NC1=O |  | HEP-2 | 1 µM |
| C/C=C\C=C\C/C=C\CCCCCCCc1cccc(O)c1O | WST | PC-3 | 4.56 µM |
| COc1cc(CCOC(=O)CCC(=O)CO)cc(O)c1OC | MTT | MDA-MB-231 | 3.57 µM |
| COc1cc(C=O)cc(OC)c1O | MTT | HepG2.2.15 | 1500 µM |
| COc1cc(/C=C/C(=O)O[C@H]2[C@H](O)[C@@H](OC3OCC(O)(CO)C3O)[C@H](OCCc3ccc(O)cc3)O[C@@H]2CO)ccc1O | MTT | MDA-MB-231 | 8.3 µM |
| O=c1[nH]cnc2c1ncn2[C@H]1CC[C@@H](CO)O1 |  | NHDF | >100 µM |
| COC(C)c1ccc(O)c(O)c1 | MTT | HepG2.2.15 | 3070 µM |
| Nc1nc(OCCOCP(=O)(O)O)cc(OCCOCP(=O)(O)O)n1 |  | CCRF-CEM | <10 µM |
| O=c1ccc2cc3ccoc3cc2o1 |  | RAW 264.7 | 100 µg/mL |
| Cc1cc(C(=O)NC2N=C(c3ccccc3)c3ccccc3NC2=O)oc1C |  | HEP-2 | 0.3 µM |
| CC(C)[C@H](O)C(=O)NC1CC2CCC1(C)C2(C)C | MTT | HEK293T | >200 µM |
| Cc1ccc(C(=O)NC2N=C(c3ccccc3)c3ccccc3NC2=O)o1 |  | HEP-2 | 2 µM |
| COc1ccc2cc1-c1cc(ccc1O)C[C@H]1c3cc4c(cc3CCN1C)Oc1c(OC)cc3c(c1O4)[C@H](C2)N(C)CC3 |  | VERO | 2.46 µg/mL |
| Nc1nc(OCCOCP(=O)(O)O)cc(=O)n1CCOCP(=O)(O)O |  | HeLa S3 | <10 µM |
| CN(C)CCCN1c2ccc3ccccc3c2Sc2cccc(Cl)c21 |  | VERO | 2.6 µg/mL |
| O=C(O)c1cc2oc3ccccc3c2cc1O |  | HELA-H1 | 150 µM |
| CSCC[C@H](O)C(=O)NC1CC2CCC1(C)C2(C)C | MTT | HEK293T | 171.5 µM |
| O=[N+]([O-])c1ccc(N2CC[N+]3(CC2)CC[N+]2(CCN(c4ccc([N+](=O)[O-])cc4[N+](=O)[O-])CC2)CC3)c([N+](=O)[O-])c1 |  | GMK | >317.7 µg/mL |
| CCN(CC)CCNc1ccc(C)c2sc3c(OC)cccc3c(=O)c12 |  | VERO | 0.79 µg/mL |
| Nc1nc(SCc2ccc([N+](=O)[O-])cc2)c2ncn([C@H]3CC[C@@H](CO)O3)c2n1 | MTT | Human fibroblasts | >5 µM |
| C[C@H](N)C(=O)N[C@@H]1[C@H]2C(=C(O)C[C@@H](O)[C@@H]2O)C(=O)O[C@]1(C)C(Cl)Cl |  | VERO | <0.41 µg/mL |
| O=C1CCC(c2ccccc2)C(=O)N1CCCCN1CCN(c2ccccc2O)CC1 | MTT | VERO 76 | >100 µM |
| CC(=O)OC(C1C=C(C)C(=O)O1)C(C)C1C2C3(O)OC4(CCC12C)C(=CCC1C(C)(C)OC2CC(=O)OC21C4O)C3=O | MTT | HL-60 | 6.75 µg/mL |
| CCCCC1OC(=O)c2ccccc21 |  | RAW 264.7 | 200 µg/mL |
| COC(=O)N[C@H](C(=O)N1CCC[C@H]1c1nc2ccc(-c3csc4c(-c5ccc(-c6cnc([C@@H]7CCCN7C(=O)[C@H](NC(=O)OC)c7ccccc7)[nH]6)cc5)csc34)cc2[nH]1)C(C)C | ATP | CAKI-1 | >50 µM |
| OC(CCl)CN1CC[N+]2(CC1)CC[N+]1(CCN(CC(O)CCl)CC1)CC2 |  | GMK | >1040 µg/mL |
| O=C1c2cccnc2-c2nccc3c2c1nc1ccccc13 |  | VERO | >10 µg/mL |
| CC(c1ccc(O)c(O)c1)N1C=NC2C(N)=NC=NC21 | MTT | HepG2.2.15 | 1900 µM |
| O=[N+]([O-])c1c(N2CCCC2)ncnc1N1CC[N+]2(CC1)CC[N+]1(CCN(c3ncnc(N4CCCC4)c3[N+](=O)[O-])CC1)CC2 |  | GMK | >733.6 µg/mL |
| OC[C@@H]1CC[C@H](n2cnc3c(NC4CC4)nc(Cl)nc32)O1 | MTT | Sheep chondrocytes G81092 | 180 µM |
| O=C(CCCCCCC(=O)Nc1ccccc1)NO | MTT | J-Lat 10.6 | 0.77 µM |
| COc1cc2ccc(=O)oc2cc1O | MTT | HepG2.2.15 | 1820 µM |
| Nc1cc(SCCOCP(=O)(O)O)nc(N)n1 |  | HeLa S3 | <10 µM |
| COc1ccccc1N1CCN(CCCCN2C(=O)CCC(c3ccccc3)C2=O)CC1 | MTT | VERO 76 | >100 µM |
| CC(=O)NC1=CC(=O)C=CC1=Nc1ccc(N(C)C)cc1 |  | VERO | 3.8 µg/mL |
| COC(=O)CC(O)(CCCC(C)(C)O)C(=O)O[C@@H]1C(OC)=C[C@]23CCCN2CCc2cc4c(cc2[C@@H]13)OCO4 |  | EBTR | <10 µM |
| CC1=C(C)C(=O)C(C(C)(C)CC(=O)n2cc(F)c(=O)[nH]c2=O)=C(C)C1=O |  | VERO | 0.9 µg/mL |
| COC(=O)N[C@H](C(=O)N1CCC[C@H]1c1ncc(-c2ccc(-c3ccc(-c4cnc([C@@H]5CCCN5C(=O)[C@@H](NC(=O)OC)C(C)C)[nH]4)cc3)cc2)[nH]1)C(C)C | ATP | SNB-78 | 15 µM |
| Nc1ccc(CNc2ncnc3c2ncn3[C@H]2CC[C@@H](CO)O2)cc1 | MTT | Human fibroblasts | >5 µM |
| CC(C)(C)C(=O)N/N=C/c1ccc([N+](=O)[O-])s1 |  | VERO | 11.2 µg/mL |
| OC[C@H]1O[C@@H](n2cnc3c(NC4CCCCCC4)ncnc32)C[C@@H]1O |  | Sheep chondrocytes G81092 | 108 µM |
| CCC1C[N+]2=C(c3cc(OC)c(OC)cc3CC2)c2c1cc1n2CCc2cc(OC)c(OC)cc2-1 |  | VERO | 21.8 µg/mL |
| Cc1nc(N2CCC[N+]3(CC2)CC[N+]2(CCCN(c4nc(C)nc5c4no[n+]5[O-])CC2)CC3)c2c(no[n+]2[O-])n1 |  | K562 | >291.4 µg/mL |
| C=CC/C=C\C/C=C\CCCCCCCc1cccc(O)c1O | WST | PC-3 | 4.53 µM |
| OC[C@H]1O[C@@H](n2cnc3c(NC4CC4)ncnc32)C[C@@H]1O |  | MDBK | >400 µM |
| Nc1nccc2c1ncn2C[C@H]1COP(=O)(O)CO1 |  | HSB-2 | 45 µM |
| O=c1[nH]c(=O)n([C@@H]2O[C@H](CO)[C@@H](O)[C@@H]2F)cc1C12B3B4B5B6B(B3B1B42)B1B5C61 |  | CFU-GM | 19.1 µM |
| C[C@@H]1O[C@@H](O[C@@H]2[C@@H](O)[C@H](OCCc3ccc(O)c(O)c3)O[C@H](COC(=O)/C=C/c3ccc(O)c(O)c3)[C@H]2O)[C@H](O)[C@H](O)[C@H]1O | MTT | MDA-MB-231 | 9.3 µM |
| O=C(N[C@H]1N=C(c2ccccc2)c2ccccc2NC1=O)c1cc(Br)c(Br)o1 |  | HEP-2 | 3.9 µM |
| CCC[C@H](NC(=O)[C@@H]1[C@H]2CCC[C@H]2CN1C(=O)[C@@H](NC(=O)[C@@H](NC(=O)c1cnccn1)C1CCCCC1)C(C)(C)C)C(=O)C(=O)NC1CC1 |  | RFP-NLS-IPS | >30 µM |
| OCCc1ccc(O[C@@H]2O[C@H](CO)[C@@H](O)[C@H](O)[C@H]2O)c(O)c1 | MTT | HL-60 | 22.43 µM |
| CCCCCCCC(=O)N1[C@H]2[C@@H]1CN1C3=C(C(=O)C(N)=C(C)C3=O)[C@@H](COC(N)=O)[C@@]21OC |  | VERO | 0.579 µg/mL |
| CCC/C=C1\OC(=O)C2=C1C=CCC2 |  | RAW 264.7 | 250 µg/mL |
| OC[C@H]1O[C@@H](n2cnc3c(NC4CCCCCC4)ncnc32)[C@H](O)[C@@H]1O | MTT | Sheep chondrocytes G81092 | 126 µM |
| Cc1cn([C@H]2C[C@H](N=[N+]=[N-])[C@@H](CO)O2)c(=O)[nH]c1=O |  | PBM | >100 µM |
| CO[C@@H]1O[C@H](COC(=O)/C=C/c2ccc(O)c(O)c2)[C@@H](O)[C@H](O)[C@H]1O | MTT | HepG2.2.15 | >1060 µM |
| Nc1cc(=O)n(CCOCP(=O)(O)O)cn1 |  | HeLa S3 | <10 µM |
| O=C1CCC(c2ccccc2)C(=O)N1CCCN1CCN(c2ncccn2)CC1 | MTT | VERO 76 | 98 µM |
| O=C(Nc1cccc([N+](=O)[O-])c1)/C(=N/NC(=O)c1ccncc1)c1nc2ccc([N+](=O)[O-])cc2[nH]c1=O |  | VERO | >10 µg/mL |
| Nc1ncnc2c1ncn2[C@H]1CC[C@@H](CO)O1 | MTT | Sheep chondrocytes G81092 | >400 µM |
| Nc1[nH]c(=O)nc2c1ncn2/C=C1/C[C@H]1CO |  | DAUDI | >214 µM |
| OC[C@@H]1CC[C@H](n2cnc3c(NCc4ccccc4)ncnc32)O1 | MTT | Human fibroblasts | >5 µM |
| Nc1nc2c(ncn2[C@@H]2C[C@H](CO)[C@H]2CO)c(=O)[nH]1 |  | HSB-2 | 37 µM |
| Nc1nc(F)nc2c1ncn2/C=C1\CC1CO |  | H-1 | >100 µM |
| CC[n+]1c2ccc(C)cc2nc2c3ccccc3c(N)cc21.[Cl-] |  | VERO | 1.2 µg/mL |
| C[N+]1(C)CCN(c2cccc(N3CC[N+](C)(C)CC3)c2[N+](=O)[O-])CC1 |  | GMK | >330.4 µg/mL |
| Nc1nc(Cl)nc2c1ncn2/C=C1\CC1CO |  | H-1 | >100 µM |
| Cc1cc2nc3ccc(N)cc3oc-2cc1=[N+](C)C |  | VERO | 0.98 µg/mL |
| [N-]=[N+]=N[C@H]1C[C@H](n2cc(/C(Cl)=C\I)c(=O)[nH]c2=O)O[C@@H]1CO |  | PBM | 23.8 µM |
| OC[C@H]1O[C@@H](n2cnc3c(NC4CC4)cc(Cl)nc32)C[C@@H]1O |  | Sheep chondrocytes G81092 | 236 µM |
| CN1C(=O)[C@]23CC4=CC=C[C@H](O)[C@H]4N2C(=O)[C@@]1(CO)SS3 |  | VERO | 0.46 µg/mL |
| OC[C@H]1O[C@@H](n2cnc3c(NC4CCCC4)nc(Cl)cc32)[C@H](O)[C@@H]1O |  | Sheep chondrocytes G81092 | 205 µM |
| CCOc1ccc2nc(NC(=O)c3c/c(=N\NC(=O)C[N+](C)(C)C)c4ccc(O)cc4o3)sc2c1.[Cl-] |  | VERO | 5.32 µg/mL |
| Nc1nc2c(ncn2C[C@@H]2COP(=O)(O)CO2)c(=O)[nH]1 |  | HSB-2 | 57 µM |
| CN(C)c1cc(OCCOCP(=O)(O)O)nc(N)n1 |  | L1210 | <10 µM |
| [N-]=[N+]=N[C@H]1C[C@H](n2cc(/C(Br)=C\I)c(=O)[nH]c2=O)O[C@@H]1CO |  | PBM | 26.2 µM |
| C[n+]1c(-c2ccc(/C=N/NC(=O)N/N=C/c3ccc(-c4cn5ccccc5[n+]4C)cc3)cc2)cn2ccccc21.Cc1ccc(S(=O)(=O)[O-])cc1.Cc1ccc(S(=O)(=O)[O-])cc1 |  | VERO | >50 µg/mL |
| O=C(NC1N=C(c2ccccc2)c2ccccc2NC1=O)c1c(F)cccc1F |  | HEP-2 | 8.7 µM |
| COc1cc(C2Oc3cc(O)cc(O)c3C(=O)C2OC2O[C@H](CO)[C@@H](O)[C@H](O)[C@H]2O)ccc1O | MTT | HepG2.2.15 | >2580 µM |
| CCOC(=O)C(NC(=O)CC(C)C)(N1CCN(c2cc3c(cc2F)c(=O)c(C(=O)O)cn3C2CC2)CC1)C(F)(F)F |  | VERO | >10 µg/mL |
| O=c1ccc2ccc(O)cc2o1 | MTT | HepG2.2.15 | 489 µM |
| CC1(C)N=C(N)N=C(N)N1c1ccc(CCCC(=O)Nc2ccc(S(=O)(=O)F)cc2)c(Cl)c1.CCS(=O)(=O)O |  | VERO | 14.9 µg/mL |
| C[C@H](NC(=O)[C@@H](O)c1cc(F)cc(F)c1)C(=O)N[C@@H]1C(=O)N(C)c2ccccc2-c2ccccc21 |  | RFP-NLS-IPS | >10 µM |

A second listing of 12 rows from above:

smiles	method	cell line	value
O=[N+]([O-])c1c(N2CCCC2)ncnc1N1CC[N+]2(CC1)CC[N+]1(CCN(c3ncnc(N4CCCC4)c3[N+](=O)[O-])CC1)CC2		GMK	>733.6 µg/mL
Nc1[nH]c(=O)nc2c1ncn2/C=C1/C[C@H]1CO		DAUDI	>214 µM
OC(c1cc(-c2ccccc2)nc2c1ccc1ccccc12)C1CCCCN1		VERO	1.8 µg/mL
CN(C)c1cc(OCCOCP(=O)(O)O)nc(N)n1		L1210	<10 µM
COc1cc(CCOC(=O)CCC(=O)CO)cc(O)c1OC	MTT	MDA-MB-231	3.57 µM
O=C1c2cccnc2-c2nccc3c2c1nc1ccccc13		VERO	>10 µg/mL
Nc1ncnc2c1ncn2[C@H]1CC[C@@H](CO)O1	MTT	Sheep chondrocytes G81092	>400 µM
COc1cc(C=O)cc(OC)c1O	MTT	HepG2.2.15	1500 µM
Cc1cc2nc3ccc(N)cc3oc-2cc1=[N+](C)C		VERO	0.98 µg/mL
C=CCNC(=O)N1CC=CC1=O	MTT / absorbance	U-937	848 µM
Nc1nc(Cl)nc2c1ncn2/C=C1\CC1CO		H-1	>100 µM
OC[C@H]1O[C@@H](n2cnc3c(NC4CCCCCC4)ncnc32)C[C@@H]1O		Sheep chondrocytes G81092	108 µM

An empty or dashed field is not shown. CCn is the concentration with n% toxicity to the cells.